{"source": "patent US12252524B2", "about": "(Eli Lilly and Company, priority 2018, dated 2025)", "experiment": "general procedure: Fmoc solid-phase peptide synthesis; Fmoc-Rink-MBHA Low Loading resin, 100-200 mesh, 1% DVB cross-linked polystyrene, 0.3-0.4 meq/g (EMD Millipore); diisopropylcarbodiimide/Oxyma; PyAOP/DIPEA for fatty acid-linker", "details": "whole synthesis, analytical RP-HPLC, TFA salt"}
{"substance": "Y-Aib-EGT-αMeF(2F)-TSDYSI-αMeL-LDEK((2-[2-(2-Amino-ethoxy)-ethoxy]-acetyl)2-(γ-Glu)-CO—(CH2)18—CO2H)AQ-Aib-EFI-(D-Glu)-YLIEGGPSSGAPPPS-NH2", "values": [{"measurement": "final HPLC purity", "result": 98.0, "unit": "%"}]}
